Activity calls are given as the source filed them.
Tests used:
Candida albicans = experiment: Antifungal activity against Candida albicans by microdilution test; assay type: functional
Candida parapsilosis = experiment: Antifungal activity against Candida parapsilosis by microdilution test; assay type: functional
Nakaseomyces glabratus = experiment: Antifungal activity against Candida glabrata by microdilution test; assay type: functional
Pichia kudriavzevii = experiment: Antifungal activity against Candida krusei by microdilution test; assay type: functional
[1] = tested on: Meyerozyma guilliermondii; experiment: Antifungal activity against Candida guilliermondii by microdilution test; assay type: functional
Cryptococcus neoformans = experiment: Antifungal activity against Cryptococcus neoformans by microdilution test; assay type: functional
[2] = Antifungal activity against Aspergillus fumigates by microdilution test; assay type: functional
Aspergillus flavus = experiment: Antifungal activity against Aspergillus flavus by microdilution test; assay type: functional
Aspergillus niger = experiment: Antifungal activity against Aspergillus niger by microdilution test; assay type: functional
Aspergillus nidulans = experiment: Antifungal activity against Aspergillus nidulans by microdilution test; assay type: functional, organism-based
Aspergillus terreus = experiment: Antifungal activity against Aspergillus terreus by microdilution test; assay type: functional
[3] = Antifungal activity against Cladophialophora carrionii by microdilution test; assay type: functional
Exophiala spinifera = experiment: Antifungal activity against Exophiala spinifera by microdilution test; assay type: functional
[4] = Antifungal activity against Exophiala oligosperma by microdilution test; assay type: functional
[5] = Antifungal activity against Exophiala xenobiotica by microdilution test; assay type: functional

Measured: Activity

ClCCN1c2ccccc2Sc2ccccc21
inactive: all assays above

Reference: ChEMBL document CHEMBL1649364, “Synthesis and antifungal activity of some substituted phenothiazines and related compounds” (2011)
